From EP1377165B1 (MYRIAD GENETICS, INC., dated 2009) come the findings set out here.

The target in this test is T1, Yeast two-hybrid activation domain-Tsg101 construct (full-length Tsg101 in GADpN2) (human, UniProt P04386 768-881; Q99816 1-390).
T1 construct: range 768-881;range 1-390; not shown: SV40 NLS of the parent plasmid GADpN2
T1 sequence: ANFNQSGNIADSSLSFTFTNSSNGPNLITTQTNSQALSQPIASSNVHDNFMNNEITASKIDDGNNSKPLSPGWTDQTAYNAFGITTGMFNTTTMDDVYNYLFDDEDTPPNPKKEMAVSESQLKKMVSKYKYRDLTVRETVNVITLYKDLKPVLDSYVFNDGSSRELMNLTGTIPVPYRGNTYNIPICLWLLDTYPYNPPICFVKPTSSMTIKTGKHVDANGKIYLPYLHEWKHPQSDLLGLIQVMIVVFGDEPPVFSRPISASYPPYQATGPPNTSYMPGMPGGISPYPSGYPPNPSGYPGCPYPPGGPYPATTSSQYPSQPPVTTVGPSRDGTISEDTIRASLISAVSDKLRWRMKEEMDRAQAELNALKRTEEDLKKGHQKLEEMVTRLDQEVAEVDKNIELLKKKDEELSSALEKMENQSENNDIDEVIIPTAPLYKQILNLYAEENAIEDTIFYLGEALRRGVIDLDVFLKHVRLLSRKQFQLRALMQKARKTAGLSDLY
Briefly: yeast two-hybrid, filter lift β-Gal assay.

B1: Yeast two-hybrid DNA binding domain-HIV1 GAGp6 construct, wild type (HIV1.NL43 strain) (other)
chain: MKLLSSIEQACDICRLKKLKCSKEKPKCAKCLKNNWECRYSPKTKRSPLTRAHLTEVESRLERLEQLFLLIFPREDLDMILKMDSLQDIKALLTGLFVQDNVNKDAVTDRLASVETDMPLTLRQHRISATSSSEESSNKGQRQLTVSLQSRPEPTAPPEESFRFGEETTTPSQKQEPIDKELYPLASLRSLFGSDPSSQ
Take B1: the binding result is “binds”.
